Compound potency records, mixed from different reports. Data source: NIAID ChemDB in PubChem.

Shared fields: tests in culture; agent: Candida albicans

Conditions beyond the fields shown may differ between rows. MIC50, MIC90 and the like: level of inhibition, or share of isolates inhibited. Blank or dashed fields: not listed here.

smiles | strain or isolate | measure | read by | result
Fc1ccc(C2CC(c3cccs3)=NN2c2nc(-c3ccccc3)cs2)cc1 | Clinical isolates | MIC | - | 250 µg/mL
O=C(CN1CCOCC1)Nc1ccc2oc(-c3ccc(F)cc3)nc2c1 | ATCC 10145 | MIC | - | 50 µg/mL
COc1ccc(C(Cc2ccc(N)cc2)n2ccnc2)cc1 | 34 strains | Geometric mean MIC | - | 4.12 µg/mL
C[C@H](N)C(=O)N[C@@H](C(=O)O)n1cc(F)c(=O)[nH]c1=O | BC759 | MIC | - | >100 µg/mL
CC(C)NC(=O)/C=C/c1ccccc1 | - | MIC | - | 0.002 µg/mL
CC(C)C(=O)C(O)(Cn1cncn1)c1ccc(Cl)cc1 | KE-2 | MIC | - | >100 µg/mL
Cc1nc2c(=O)n(-c3ccc(S(=O)(=O)NC(=S)Nc4ccc(Cl)cc4)cc3)nc(C)c2s1 | ATCC 10231 | MIC | broth dilution | 12.5 µg/mL
COc1ccc(C(Cc2ccc(F)cc2)n2ccnc2)cc1 | 34 strains | Geometric mean MIC | - | 61.39 µg/mL
CCN(CC)C(=O)/C=C/c1ccccc1 | - | MIC | - | 0.002 µg/mL
CN[C@@H]1[C@H](O[C@@H]2OC[C@@H](O)[C@H](O)[C@H]2O)[C@@H](O)[C@H](O[C@H]2c3cc(C)c(C(=O)N[C@H](C)C(=O)O)c(O)c3-c3c(cc4c(c3O)C(=O)c3cc(OC)cc(O)c3C4=O)[C@@H]2O)O[C@@H]1C | A9540 | MIC | - | 12.5 µg/mL
COc1ccc(C(Cc2ccccc2[N+](=O)[O-])n2ccnc2)cc1 | 34 strains | Geometric mean MIC | - | 296 µg/mL
COc1ccc(-c2csc(N3N=C(c4cccs4)CC3c3ccc(F)cc3)n2)cc1 | Clinical isolates | MIC | - | 125 µg/mL
C[C@](O)(c1ccc(F)cc1)[C@](O)(Cn1cncn1)c1ccc(F)cc1 | KE-2 | MIC | - | >100 µg/mL
O=C(Cn1c(=O)oc2cc(C(=O)c3ccccc3F)c(Cl)cc21)c1ccc(Cl)cc1 | ATCC 90028 | MIC | - | 128 µg/mL
C[C@H](N)C(=O)N[C@H](C(=O)O)n1cc(F)c(=O)[nH]c1=O | BC759 | MIC | - | 1.6 µg/mL
COc1ccc(/C=C/C(=O)O)cc1 | - | MIC | - | 0.002 µg/mL
COc1ccc(C2CC(c3cccs3)=NN2c2nc(-c3ccc(C)cc3)cs2)cc1 | Clinical isolates | MIC | - | 62.5 µg/mL
Cc1nc2c(=O)n(-c3ccc(S(=O)(=O)NC(=S)Nc4ccccc4)cc3)nc(C)c2s1 | ATCC 10231 | MIC | broth dilution | 25 µg/mL
COc1ccc(C(c2nccc3ccccc23)n2ccnc2)cc1.O=[N+]([O-])O | 44 strains | Mean MIC | - | >256 µg/mL
Clc1ccc(CC(Cc2ccc(-c3ccccc3)cc2)n2ccnc2)cc1 | - | MIC | - | 19.2 µM
O[C@H](c1ccc(Cl)cc1)[C@](O)(Cn1cncn1)c1ccc(Cl)cc1Cl | KE-2 | MIC | - | 100 µg/mL
Fc1ccc(COc2ccc(C(c3cccc4ccccc34)n3ccnc3)cc2)c(F)c1.O=[N+]([O-])O | 17 strains | MIC90 | - | ≥256 µg/mL
Nc1ccc(O)c2ncccc12 | Berkout KCCM 50235 | MIC | - | 1.6 µg/mL
C[C@](O)(c1ccc(F)cc1)[C@](O)(Cn1cncn1)c1ccccc1Cl | KE-2 | MIC | - | >100 µg/mL
CC(C)(C)c1ccc(CC(Cc2ccc(-c3ccccc3)cc2)n2ccnc2)cc1 | - | MIC | - | 66.5 µM
O=C(/C=C/c1ccccc1)Nc1ccccc1[N+](=O)[O-] | - | MIC | - | 0.003 µg/mL
O=C(CN1CCOCC1)Nc1ccc2oc(-c3ccccc3)nc2c1 | ATCC 10145 | MIC | - | 50 µg/mL
c1ccc(CC(Cc2ccc(-c3ccccc3)cc2)n2ccnc2)cc1 | - | MIC | - | 1.6 µM
O=C(Cc1ccccc1Cl)Nc1ccc2oc(-c3ccccc3)nc2c1 | ATCC 10145 | MIC | - | 25 µg/mL
Cc1ccc(C(=O)Cn2c(=O)oc3cc(C(=O)c4cc(F)ccc4F)ccc32)cc1 | ATCC 90028 | MIC | - | 128 µg/mL
O=[N+]([O-])c1ccc(C2CC(c3cccs3)=NN2c2nc(-c3ccccc3)cs2)cc1 | Clinical isolates | MIC | - | 125 µg/mL
CC(C)(C)c1ccc(-c2nc3cc(NC(=O)CN4CCNCC4)ccc3o2)cc1 | ATCC 10145 | MIC | - | 25 µg/mL
Fc1ccc(COc2ccc(C(c3ccc(-c4ccccc4)cc3)n3ccnc3)cc2)c(F)c1.O=[N+]([O-])O | 17 strains | Mean MIC | - | ≥256 µg/mL
CS/C(N)=N/NC(=O)c1ccc(Cl)cc1 | - | MIC | - | >100 µg/mL
Cc1ccc(C(=O)Cn2c(=O)oc3cc(C(=O)c4c(F)cccc4F)ccc32)cc1 | ATCC 90028 | MIC | - | 128 µg/mL
CCc1ccc(-c2nc3cc(NC(=O)CN4CCNCC4)ccc3o2)cc1 | ATCC 10145 | MIC | - | 50 µg/mL
Cc1ccc(/C=c2/sc3n(c2=O)C(N)=C(CN)C(c2ccc(C)o2)C=3CN)o1 | - | MIC | - | 100 µg/mL
O=C(Cc1ccc(Br)cc1)Nc1ccc2oc(-c3ccccc3)nc2c1 | ATCC 10145 | MIC | - | 25 µg/mL
O=C(Cn1c(=O)oc2cc(C(=O)c3ccccc3F)c(Cl)cc21)c1ccccc1 | ATCC 90028 | MIC | - | 128 µg/mL
COc1ccc(C(Cc2cccc([N+](=O)[O-])c2)n2ccnc2)cc1 | 34 strains | Geometric mean MIC | - | 256 µg/mL
Clc1ccc(CC(Cc2ccc(-c3ccccc3)cc2)n2ccnc2)c(Cl)c1 | - | MFC | - | 40 µM
COc1ccc([C@@H](Cc2ccc(Cl)cc2Cl)n2ccnc2)cc1 | 34 strains | MIC90 | - | 4 µg/mL
CC[C@@H](C)[C@H](OC(=O)/C=C/c1ccccc1)[C@H](C)[C@H](O)C/C=C/C=C/C(N)=O | - | MIC | - | 0.5 µg/mL
Clc1ccc(COc2ccc(C(c3ccc(-c4ccccc4)cc3)n3ccnc3)cc2)c(Cl)c1.O=[N+]([O-])O | 17 strains | MIC90 | - | ≥256 µg/mL
C=CCS/C(N)=N/NC(=O)c1ccc(Cl)cc1 | - | MIC | - | >100 µg/mL
Cc1ccc(-c2c(CN)c(N)n(N)c(=O)c2CN)o1 | - | MIC | - | 1.56 µg/mL
COc1ccc(C(Cc2ccccc2N)n2ccnc2)cc1 | 34 strains | Geometric mean MIC | - | 55.23 µg/mL
C[C@@](O)(c1ccc(Cl)cc1)[C@](O)(Cn1cncn1)c1ccc(Cl)cc1Cl | KE-2 | MIC | - | 50 µg/mL
O=C(Cn1c(=O)oc2cc(C(=O)c3cccc(F)c3)c(Cl)cc21)c1ccccc1 | ATCC 90028 | MIC | - | 128 µg/mL
COc1cc(C(=O)N/N=C(\N)SC)cc(OC)c1OC | - | MIC | - | >100 µg/mL
Cc1nn2c(C(F)(F)F)nnc2c2c(C)noc12 | ATCC 10231 | MIC | broth dilution | ≥200 µg/mL
C=CCS/C(N)=N/NC(=O)c1ccccc1 | - | MIC | - | >100 µg/mL
O=C(Cn1c(=O)oc2cc(C(=O)c3cc(F)ccc3F)ccc21)c1ccccc1 | ATCC 90028 | MIC | - | 128 µg/mL
CCOC(=O)c1nc2ccccc2nc1Nc1cc(OC)c(OC)c(OC)c1 | - | MIC | - | 1.9 µg/mL
C=CCS/C(N)=N/NC(=O)c1ccc(C)cc1 | - | MIC | - | >100 µg/mL
Cc1nc2c(=O)n(-c3ccc(S(=O)(=O)NC(=O)Nc4ccc(Cl)cc4)cc3)nc(C)c2s1 | ATCC 10231 | MIC | broth dilution | 50 µg/mL
CC(c1cccs1)C(O)(Cn1ccnc1)c1ccc(Cl)cc1Cl | - | MIC80 | - | 4 µg/mL
C[C@@](O)(c1ccc(F)cc1)[C@](O)(Cn1cncn1)c1ccccc1Cl | KE-2 | MIC | - | >100 µg/mL
CCCCCOc1ccc(-c2cc(-c3ccc(C(=O)N[C@H]4C[C@@H](O)[C@@H](O)NC(=O)[C@@H]5[C@@H](O)[C@@H](C)CN5C(=O)[C@H]([C@H](O)CC(N)=O)NC(=O)[C@H]([C@H](O)[C@@H](O)c5ccc(O)c(OS(=O)(=O)O)c5)NC(=O)[C@@H]5C[C@@H](O)CN5C(=O)[C@H]([C@@H](C)O)NC4=O)cc3)no2)cc1 | FP633 | MIC | broth dilution | 0.78 µg/mL
COc1ccccc1CC(Cc1ccc(-c2ccccc2)cc1)n1ccnc1 | - | MIC | - | ≥5.5 µM
O=C(CN1CCNCC1)Nc1ccc2oc(-c3ccccc3)nc2c1 | ATCC 10145 | MIC | - | 50 µg/mL
NC(=NC1CCCC1)c1ccc(-c2ccc(-c3ccc(C(N)=NC4CCCC4)cc3)o2)cc1 | Isolate CA2256 fluconazole-resistant | MFC | - | 50 µg/mL
COc1ccc(C(Cc2ccc(-n3cccc3)cc2)n2ccnc2)cc1 | 34 strains | Geometric mean MIC | - | >256 µg/mL
C=C1CC[C@H]2C[C@@H]1C2(C)C | UMIP 48.72 | MIC | broth dilution | 3000 µg/mL
C[C@@](O)(c1ccc(F)cc1)[C@](O)(Cn1cncn1)c1ccc(F)cc1 | KE-2 | MIC | - | >100 µg/mL
COc1ccc(C(Cc2ccccc2-n2cccc2)n2ccnc2)cc1 | 34 strains | MIC50 | - | 16 µg/mL

The last 5 rows once more:

smiles,strain or isolate,measure,read by,result
NC(=NC1CCCC1)c1ccc(-c2ccc(-c3ccc(C(N)=NC4CCCC4)cc3)o2)cc1,Isolate CA2256 fluconazole-resistant,MFC,-,50 µg/mL
COc1ccc(C(Cc2ccc(-n3cccc3)cc2)n2ccnc2)cc1,34 strains,Geometric mean MIC,-,>256 µg/mL
C=C1CC[C@H]2C[C@@H]1C2(C)C,UMIP 48.72,MIC,broth dilution,3000 µg/mL
C[C@@](O)(c1ccc(F)cc1)[C@](O)(Cn1cncn1)c1ccc(F)cc1,KE-2,MIC,-,>100 µg/mL
COc1ccc(C(Cc2ccccc2-n2cccc2)n2ccnc2)cc1,34 strains,MIC50,-,16 µg/mL